# Assay results reported in US20190022211A1 (CELLTRION, published 2019).
# Where “and” joins values, the source holds several entries; their conditions need not be identical. Equal entries are not always repeated.
# B1: antibody 1 (antibody, V domains shown)
# VH: VQLLQESGPGLAKPSETLSLICTVSGGSISRRRDYWGWIRQPPGRGLEWIGSFFHRGSTYYNPSLESRVSISVDPSKNQFSLHLSSVTVADTAVYYCARHPSTPFAEYLLLPDAFDSWGQGTLVTVSS
# VL: DIVMTQSPATLSVSPGERATLSCRASQSVRSSLAWYQQRPGQAPRLLISGASTRATDIPARLSGSGSGTEFTLTVSSLQSEDFAVYYCQQYSDWPLTFGGGTKVEIKR
# Legend:
# [1] = target: purified rabies virus G protein (rabies virus)
# [2] = target: G protein of rabies virus I-151 (Dog, India), on virus (rabies virus); experiment: cell-based or functional assay
# [3] = target: G protein of rabies virus I-148 (Dog, India), on virus (rabies virus); experiment: cell-based or functional assay
# [4] = target: G protein of rabies virus rv61 (Human (ex, dog), UK (ex, India)), on virus (rabies virus); experiment: cell-based or functional assay
binder,measurement,setting,value
B1,Kd,[1],3.73 nM and 4.54 nM and 5.36 nM
same,koff,[1],0.000939 s⁻¹ and 0.00115 s⁻¹
same,kon,[1],252000 M⁻¹ s⁻¹ and 214000 M⁻¹ s⁻¹
same,neutralizing activity (RFFIT),[2],0.74 IU/mL and 3680 IU/mg
same,neutralizing activity (RFFIT),[3],2600 IU/mg
same,neutralizing activity (RFFIT),[4],1.7 IU/mL and 1740 IU/mg
same,"neutralizing activity (RFFIT), Titer",[4],200
